# Assay results reported in PMC3735122 (mBio, 2013).
# What was measured:
# [1] = molecular target: RG-A/CA/04/09 NA^H274Y neuraminidase (Influenza A virus (A/California/04/2009(H1N1)), UniProt C3W5S3, H275Y); test: biochemical
# [2] = molecular target: RG-A/CA/04/09 neuraminidase (Influenza A virus (A/California/04/2009(H1N1)), UniProt C3W5S3); conditions: read-out: IC50 value [mean (95% CI)]
structure (smiles),measurement,setting,value
CC(=O)N[C@H]1[C@H]([C@H](O)[C@H](O)CO)OC(C(=O)O)=C[C@@H]1N=C(N)N [zanamivir],IC50,[1],0.88 nM
same,IC50,[2],0.52 nM
